In the test the target is DBV Gn head-ferritin nanoparticle. The experiment in a line: SEC. (In general: Size exclusion chromatography separates by hydrodynamic size, large species first.)

DBV Gn head-ferritin nanoparticle registered a stoichiometry N of 24.

Broadly, the stoichiometry N is the number of molecules, sites or subunits per partner or assembly.

These data come from PMC10653821, “Self-assembling Gn head ferritin nanoparticle vaccine provides full protection from lethal challenge of Dabie bandavirus in aged ferrets” (2023).
